In paper PMC7837296, “A novel LysR‐type regulator negatively affects biosynthesis of the immunosuppressant brasilicardin” (Engineering in Life Sciences, 2020):
Tags and fusion partners may be left off the protein sequences shown. The exact form of at least one protein or probe is not confirmed.

System: T1, LysRNtHis6 (Nocardia terpenica IFM 0406)
T1 sequence (looked up): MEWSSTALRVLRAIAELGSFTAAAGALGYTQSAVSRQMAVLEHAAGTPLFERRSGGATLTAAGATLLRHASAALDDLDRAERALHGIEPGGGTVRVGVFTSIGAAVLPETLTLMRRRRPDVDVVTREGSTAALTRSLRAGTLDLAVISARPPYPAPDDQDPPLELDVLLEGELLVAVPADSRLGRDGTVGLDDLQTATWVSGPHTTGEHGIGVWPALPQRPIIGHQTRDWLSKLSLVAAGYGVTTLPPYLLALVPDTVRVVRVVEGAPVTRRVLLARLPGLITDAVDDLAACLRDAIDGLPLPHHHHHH
Assay: EMSA
Conditions: 1x PBS ([…], BSA, glycerol, recombinant protein, probe letters rebuilt from the primers and the genome

Sequence	binding result (200-1000 nM, protein details: C-terminal His6, label: Cy5 (primer pTZCy5), part of a longer molecule)	binding result (50-500 nM, nearly all DNA bound at 500 nM, highest affinity of tested, protein details: C-terminal His6, label: 32P)
GGTCGCAGGCATCGATGACCCCTCCTGGCCGCAACGGGAAGCCGACGGCTGCCATGGTATGTCGCGGATCCGAATCGCGCAGCCCAACGAGCGGATAAATTTAGGATAAACAATGCTTCCGGACAATAATTTCTGGATAACATCGAAACCGGTCATATTGCCCGTGATCGGTTTTCCGTGGGATGATCCCGGCATACATTCGGTACGGGGTGGAGGTCGGACGGTCCGGCAATTCTGTCGATCATGAATTGGTGAGTTTCCTCTAGAATATCACGGCGAAACCGGCGGTTGATAGCGGAGGGTCCGGTGATGGTGAATTCCGGAGAATGGGTCGACGACCCCGACTTGTCCATGAACACCGTGGCATTTCGCCCGGATCGGCAGCTGGTGGCGAGGGCGGCGG (double strand) [ΔM2_bra0-1p]	binds	
GGTCGCAGGCATCGATGACCCCTCCTGGCCGCAACGGGAAGCCGACGGCTGCCATGGTATGTCGCGGATCCGAATCGCGCAGCCCAACGAGCGGATAAATTTAGGATAAACAATGCTTCCGGACAATAATTTCTGGATAACATCGAAACCGGTCATATTGCCCGTGATCGGTTTTCCGTGGGATGATCCCGGCATACATTCGGTACGGGGTGGAGGTCGGACGGTCCGGCAATTCTGTCGATCATGAATTGGTGAGTTTTTCCGGTGGCGTCACGGCGAAACCGGCGGTTGATAGCGGAGGGTCCGGTGATGGTGAATTCCGGAGAATGGGTCGACGACCCCGACTTGTCCATGAACACCGTGGCATTTCGCCCGGATCGGCAGCTGGTGGCGAGGGCGGCGG (double strand) [bra0-1p]		binds
